The text below walks through data of publication PMC10434283, “A Novel Two-Component Bacteriocin, Acidicin P, and Its Key Residues for Inhibiting Listeria monocytogenes by Targeting the Cell Membrane” (Microbiology Spectrum, 2023).

The data set in a line: Circular dichroism (CD) spectroscopy, secondary structure. It counts as physicochemical. As to conditions: peptide 0.2 mg/mL; for calculated helicity: CD at 50% TFE; for CD spectrum, conformation: aqueous solution.

As to “RNKMAYNVGKAISRIMRRVR [Adpα, 20-residue mature α peptide of the two-component bacteriocin acidicin P, obtained by solid-phase peptide synthesis]”, the calculated helicity is 24.9% and the “CD spectrum, conformation” value is reported as “nonstructured conformations”.
For “KKKRGFWYHVGDAVTSFGRGFASAFG [Adpβ, 26-residue mature β peptide of the two-component bacteriocin acidicin P, obtained by solid-phase peptide synthesis]” the same measures were 16.5% and “nonstructured conformations”.
